For assay [1], the target named is LASV GPCclamp (clamp-stabilised Lassa virus glycoprotein precursor) (Lassa virus (Josiah strain) | HIV) (UniProt P08669).
Assay [2] has the same target. Briefly: SEC. (In gel filtration, larger molecules generally elute earlier.)

Read-outs that look alike come from different tables or passages of the source.

The stoichiometry N is a count of units in the complex or per binding partner. In turn, “LASV GPCclamp (clamp-stabilised Lassa virus glycoprotein precursor) (from UniProt P08669;P04578)” displayed a stoichiometry N in assay [1] of 3.

Substance “LASV GPCclamp (clamp-stabilised Lassa virus glycoprotein precursor) (from UniProt P08669;P04578) (domain or fragment)” gave a stoichiometry N in assay [2] of 3.

For the origin of these results see PMC9436389 (2022).
